Assay [1] concerns the target M2 expressed on A/HK/8/68 infected MDCK cells (influenza A virus A/HK/8/68). The experiment in a line: cell-based ELISA, infected MDCK cells.
A further assay concerns the target CM12 (influenza A virus). The experiment in a line: ELISA, peptide coated, antibody 10 µg/ml.
The target of a further assay is CM13 (influenza A virus). The experiment in a line: ELISA, peptide coated, antibody 10 µg/ml. In general terms: In an ELISA, binding on a coated surface is turned into a signal by an enzyme label.
A further assay deals with CM14 (influenza A virus). In words: ELISA, peptide coated, antibody 10 µg/ml.
The target of the next assay is CM15 (influenza A virus). The experiment in a line: ELISA, peptide coated, antibody 10 µg/ml.
For the next assay, the target named is CM16 (influenza A virus). In words: ELISA, peptide coated, antibody 10 µg/ml.
Another assay addresses CM17 (influenza A virus). The experiment in a line: ELISA, peptide coated, antibody 10 µg/ml.
For another assay, the target named is M12 (influenza A virus). In words: ELISA, peptide coated, antibody 10 µg/ml.
The target of a further assay is NM11 (influenza A virus). In words: ELISA, peptide coated, antibody 10 µg/ml.
For a further assay, the target named is NM12 (influenza A virus). The experiment in a line: ELISA, peptide coated, antibody 10 µg/ml.
The target of another assay is NM13 (influenza A virus). The experiment in a line: ELISA, peptide coated, antibody 10 µg/ml.
A further assay concerns the target NM14 (influenza A virus). In words: ELISA, peptide coated, antibody 10 µg/ml.

B1: N547 (antibody, V domains shown)
VH: EVQLVESGGGLVKPGGSLRLSCAASGFTFSNALMSWVRQAPGKGLEWVGRIKSKTNGGTTDYAAPVKGRFTISRDDSKNTLYLQMNSLKTEDTAVYYCTTHLRYFDWLSDYWGQGTLVTVSS
VL: QSVLTQPPSMSAAPGQKVTISCSGSSSNIGNNYISWYQQLPGTAPKVLIYDNNKRPSGIPDRFSGSKSGTSATLGITGLQTGDEADYYCGSWDSSLSAGVFGTGTKVTVLG
B1 gave a concentration giving a half-maximal response (EC50) in assay [1] of 0.466 µg/mL. Besides, the ELISA (OD450) is 0.07 OD450 in the assay with CM12 (influenza A virus); 0.08 OD450 with CM13 (influenza A virus); 0.08 OD450 with CM14 (influenza A virus); 0.08 OD450 in the assay with CM15 (influenza A virus); 0.08 OD450 with CM16 (influenza A virus); 0.08 OD450 with CM17 (influenza A virus). In addition, the ELISA (OD450) is 0.07 OD450 with M12 (influenza A virus); 0.07 OD450 in the assay with NM11 (influenza A virus); 0.16 OD450 with NM12 (influenza A virus); 0.06 OD450 with NM13 (influenza A virus); 0.16 OD450 with NM14 (influenza A virus).

Broadly, the EC50 is the concentration needed to bring the measured effect to its halfway point. Low values mean higher potency in that assay, high ones lower potency in that assay.

These data come from US20050170334A1.
